Data as given in US20240109955A1 (published 2024).

Assays:
Test in all cases: cell-based or functional assay
[1] = molecular target: SARS-CoV-2 spike protein, Omicron variant BA.4/5 (SARS-CoV-2)
[2] = molecular target: SARS-CoV-2 spike protein, Omicron variant BQ.1 (SARS-CoV-2)
[3] = molecular target: SARS-CoV-2 spike protein, Omicron variant BQ.1.1 (SARS-CoV-2)
[4] = molecular target: SARS-CoV-2 spike protein, Omicron variant BA.2.75.2 (SARS-CoV-2)
[5] = molecular target: SARS-CoV-2 spike protein, Omicron variant XBB (SARS-CoV-2)
[6] = molecular target: SARS-CoV-2 spike protein, Delta variant (SARS-CoV-2)
[7] = molecular target: SARS-CoV-2 spike (S) protein, Omicron sublineage BA.4.6 (R346T, F486V) (SARS-CoV-2, UniProt P0DTC2 14-1273)
[8] = molecular target: SARS-CoV-2 spike (S) protein, Omicron sublineage BA.4.7 (R346S, F486V) (SARS-CoV-2, UniProt P0DTC2 14-1273)
[9] = molecular target: SARS-CoV-2 spike (S) protein, Omicron sublineage BF.7 (R346T, F486V) (SARS-CoV-2, UniProt P0DTC2 14-1273)
[10] = molecular target: SARS-CoV-2 spike (S) protein, Omicron sublineage BQ 1.1 (R346T, K444T, F486V) (SARS-CoV-2, UniProt P0DTC2 14-1273)
[11] = molecular target: SARS-CoV-2 Omicron BA.4.6 spike protein (R346T, F486V) (SARS-CoV-2, UniProt P0DTC2 14-1273)

B1: E12 (antibody, V domains shown)
VH: EVQLVESGGGLIQPGGSLRLSCAASGVIVSYNYMNWVRQAPGKGLEWVSVIYSGGSTFYADSVRGRFTISRDNSKNTLYLQMNSLRAEDTAVYYCARDLGPAGAFDIWGLGTMVTVSS
VL: EIVLTQSPGTLSLSPGETATLSCRASQSFSSDLAWYQQKPGQAPRLLIYGASSRATGIPDRFSGSGSGTDFTLTISRLEPADFAVYYCQQYGSSPPVTFGGGTKVEIK
IC50, pseudovirus neutralization [1]: 0.00462 µg/mL | IC80, pseudovirus neutralization [1]: 0.00921 µg/mL | IC50, pseudovirus neutralization [2]: 0.0119 µg/mL | IC80, pseudovirus neutralization [2]: 0.0409 µg/mL | IC50, pseudovirus neutralization [3]: 0.00529 µg/mL | IC80, pseudovirus neutralization [3]: 0.0174 µg/mL | IC50, pseudovirus neutralization [4]: 0.00699 µg/mL | IC80, pseudovirus neutralization [4]: 0.0401 µg/mL | IC50, pseudovirus neutralization [5]: 0.0126 µg/mL | IC80, pseudovirus neutralization [5]: 0.0311 µg/mL

B2: E8 (antibody, V domains shown)
VH: QVTLRESGPALVKPTQTLTLTCTFSGFSLSTRGVCVSWIRQPPGKALEWLAFIDWDDDKYYNTSLKTRLTISKDTSKNQVVLTMTNVHPVDTATYYCARISSHHGSSWCTTFDYWGQGALVTVSA
VL: DTVMTQSPLSLPVTPGEPASISCRSSQSLLNSNGYNYLDWYVQKPGQSPQLLIYLGSNRASGVPDRFSGSGSGTDFTLKISRVEAEDVGVYYCMQPLQTPLFTFGPGTKVEIK
IC50, pseudovirus neutralization [1]: 0.00013 µg/mL | IC80, pseudovirus neutralization [1]: 0.00049 µg/mL | IC50, pseudovirus neutralization [2]: 0.124 µg/mL | IC80, pseudovirus neutralization [2]: 5.19 µg/mL | IC50, pseudovirus neutralization [3]: 0.496 µg/mL | IC80, pseudovirus neutralization [3]: 1.8 µg/mL | IC50, pseudovirus neutralization [4]: 0.00172 µg/mL | IC80, pseudovirus neutralization [4]: 0.0059 µg/mL | IC50, pseudovirus neutralization [5]: 0.0615 µg/mL | IC80, pseudovirus neutralization [5]: 0.705 µg/mL

B3: B8 (antibody, V domains shown)
VH: EVQLVESGGALIQPGGSLRLSCAASGIIVSANYMSWVRQAPGKGLEWVSVIYSGGSTFYADSVKGRFTISRDNSKNTLYLEMNSLRAEDTAVYYCARDAPILGVSDWGQGTLVTVSS
VL: EIVMTQSPAILSVSPGERATLSCRASQSVAINLAWYQQKPGQAPRLLIYAASSRATGIPGRFSGSGSETNFTLTISSLQSGDFAVYYCQQYITWPPSYTFGQGTKLEIK
IC50, pseudovirus neutralization [6]: 0.0133 µg/mL | IC80, pseudovirus neutralization [6]: 0.199 µg/mL

B4: E12 (antibody, V domains shown)
VH: EVQLVESGGGLIQPGGSLRLSCAASGVIVSYNYMNWVRQAPGKGLEWVSVIYSGGSTFYADSVRGRFTISRDNSKNTLYLQMNSLRAEDTAVYYCARDLGPAGAFDIWGLGTMVTVSS
VL: EIVLTQSPGTLSLSPGETATLSCRASQSFSSDLAWYQQKPGQAPRLLIYGASSRATGIPDRFSGSGSGTDFTLTISRLEPADFAVYYCQQYGSSPPVTFGGGTKVEIK
IC50, pseudovirus neutralization [6]: 0.0173 µg/mL | IC80, pseudovirus neutralization [6]: 0.0321 µg/mL

B5: E8 (antibody, V domains shown)
VH: QVTLRESGPALVKPTQTLTLTCTFSGFSLSTRGVCVSWIRQPPGKALEWLAFIDWDDDKYYNTSLKTRLTISKDTSKNQVVLTMTNVHPVDTATYYCARISSHHGSSWCTTFDYWGQGALVTVSA
VL: DTVMTQSPLSLPVTPGEPASISCRSSQSLLNSNGYNYLDWYVQKPGQSPQLLIYLGSNRASGVPDRFSGSGSGTDFTLKISRVEAEDVGVYYCMQPLQTPLFTFGPGTKVEIK
IC50, pseudovirus neutralization [6]: 0.00681 µg/mL | IC80, pseudovirus neutralization [6]: 0.0333 µg/mL

B6: MX828 + MX829 (other)
chain 1: QTVVTQEPSFSVSPGGTVTLTCGLSSGSVSTAYFPSWYQQTPGQAPRTLIYGTNTRSSGVPDRFSGSILGNKAALTITGAQADDESDYYCVLYMGRGIVVFGGGTKLTVLGGSSGEIVLTQSPGTLSLSPGERATLSCRASQSVSSSYLAWYQQKPGQAPRLLIYSASSRATGIPDRFSGSGSGTDFTLTISRLEPEDFAVYFCQQYVGLTGWTFGQGTKVEIKGGGGSGGSGSGGGGSASGSGQMQLVQSGPEVKKPGTSVKVSCKASGFTFTSSAVQWVRQRQRLEWIGWIVVGSGNTNYAQKFQERVTITRDMSTSTAYMELSSLRSEDTAVYYCAAPNCSNVVCYDGFDIWGQGTMVTVSSGGSSGQVQLVESGGGVVQPGRSLRLSCAASGFTLSSYGMHWVRQAPGKGLEWVAVISYDGSNKYYVDSVKGRFTISRDNSKNTLYLQMNSLRAEDTAVYYCRWAYWELLPDYYYGMDVWGQGTTVTVSSASGGSGDKTHTCPPCPAPELLGGPSVFLFPPKPKDTLMISRTPEVTCVVVDVSHEDPEVKFNWYVDGVEVHNAKTKPREEQYNSYVVSVLTVLHQDWLNGKEYKCKVSNKALPAPIEKTISKAKGQPREPQVYTLPPSRDELTKNQVSLTCLVKGFYPSDIAVEWESNGQPENNYKTTPPVLDSDGSFFKKLTVDKSRWQQGNVFSCSVLHEALHSHYTQKSLSLSPG
chain 2: DIQMTQSPSSVSASVGDRVIITCRASQGISSWLAWYQQKPGKAPKVLIYDASSLQSGVPSRFSGSGYGTDFTLTISSLQPEDSATYYCQQAKSFPITFGQGTRLEIKGGSSGEIVLTQSPGTLSLSPGERATLSCRASQSVSSSYLAWYQQKPGQAPRLLIYSASSRATGIPDRFSGSGSGTDFTLTISRLEPEDFAVYFCQQYVGLTGWTFGQGTKVEIKGGGGSGGSGSGGGGSASGSGQMQLVQSGPEVKKPGTSVKVSCKASGFTFTSSAVQWVRQRQRLEWIGWIVVGSGNTNYAQKFQERVTITRDMSTSTAYMELSSLRSEDTAVYYCAAPNCSNVVCYDGFDIWGQGTMVTVSSGGSSGQVQLVESGGGVVQPGRSLRLSCAASGFTFSSYAFHWVRQAPGKGLEWVAVISYDGSNQYYADSVKGRFTISRDNSKNTLYLQMNSLRADDTAVYYCARDLAIAVAGTWHYYNGMDVWGQGTTVTVSSASGGSGDKTHTCPPCPAPELLGGPSVFLFPPKPKDTLMISRTPEVTCVVVDVSHEDPEVKFNWYVDGVEVHNAKTKPREEQYNSYVVSVLTVLHQDWLNGKEYKCKVSNKALPAPIEKTISKAKGQPREPQVYTLPPSRDELTKNQVSLTCLVKGFYPSDIAVEWESNGQPENNYKTTPPVLDSDGSFFKKLTVDKSRWQQGNVFSCSVLHEALHSHYTQKSLSLSPG
IC50, pseudovirus neutralization [7]: 15 nM | IC80, pseudovirus neutralization [7]: 40.4 nM | IC50, pseudovirus neutralization [8]: 10 nM | IC80, pseudovirus neutralization [8]: 31.1 nM | IC50, pseudovirus neutralization [9]: 5.26 nM | IC80, pseudovirus neutralization [9]: 22.4 nM | IC50, pseudovirus neutralization [10]: 538 nM | IC80, pseudovirus neutralization [10]: 1970 nM

B7: MX830 + 831 (other)
chain 1: QTVVTQEPSFSVSPGGTVTLTCGLSSGSVSTAYFPSWYQQTPGQAPRTLIYGTNTRSSGVPDRFSGSILGNKAALTITGAQADDESDYYCVLYMGRGIVVFGGGTKLTVLGGSSGEIVLTQSPGTLSLSPGERATLSCRASQSVSSSYLAWYQQKPGQAPRLLIYSASSRATGIPDRFSGSGSGTDFTLTISRLEPEDFAVYFCQQYGGLTGWTFGQGTKVEIKGGGGSGGSGSGGGGSASGSGQMQLVQSGPEVKKPGTSVKVSCKASGFTFTSSAVQWVRQRQRLEWIGWIVVGSGNTNYAQKFQERVTITRDMSTSTAYMELSSLRSEDTAVYYCAAPNCSNVVCYDGFDIWGQGTMVTVSSGGSSGQVQLVESGGGVVQPGRSLRLSCAASGFTLSSYGMHWVRQAPGKGLEWVAVISYDGSNKYYVDSVKGRFTISRDNSKNTLYLQMNSLRAEDTAVYYCRWAYWELLPDYYYGMDVWGQGTTVTVSSASGGSGDKTHTCPPCPAPELLGGPSVFLFPPKPKDTLMISRTPEVTCVVVDVSHEDPEVKFNWYVDGVEVHNAKTKPREEQYNSYVVSVLTVLHQDWLNGKEYKCKVSNKALPAPIEKTISKAKGQPREPQVYTLPPSRDELTKNQVSLTCLVKGFYPSDIAVEWESNGQPENNYKTTPPVLDSDGSFFKKLTVDKSRWQQGNVFSCSVLHEALHSHYTQKSLSLSPG
chain 2: DIQMTQSPSSVSASVGDRVIITCRASQGISSWLAWYQQKPGKAPKVLIYDASSLQSGVPSRFSGSGYGTDFTLTISSLQPEDSATYYCQQAKSFPITFGQGTRLEIKGGSSGEIVLTQSPGTLSLSPGERATLSCRASQSVSSSYLAWYQQKPGQAPRLLIYSASSRATGIPDRFSGSGSGTDFTLTISRLEPEDFAVYFCQQYGGLTGWTFGQGTKVEIKGGGGSGGSGSGGGGSASGSGQMQLVQSGPEVKKPGTSVKVSCKASGFTFTSSAVQWVRQRQRLEWIGWIVVGSGNTNYAQKFQERVTITRDMSTSTAYMELSSLRSEDTAVYYCAAPNCSNVVCYDGFDIWGQGTMVTVSSGGSSGQVQLVESGGGVVQPGRSLRLSCAASGFTFSSYAFHWVRQAPGKGLEWVAVISYDGSNQYYADSVKGRFTISRDNSKNTLYLQMNSLRADDTAVYYCARDLAIAVAGTWHYYNGMDVWGQGTTVTVSSASGGSGDKTHTCPPCPAPELLGGPSVFLFPPKPKDTLMISRTPEVTCVVVDVSHEDPEVKFNWYVDGVEVHNAKTKPREEQYNSYVVSVLTVLHQDWLNGKEYKCKVSNKALPAPIEKTISKAKGQPREPQVYTLPPSRDELTKNQVSLTCLVKGFYPSDIAVEWESNGQPENNYKTTPPVLDSDGSFFKKLTVDKSRWQQGNVFSCSVLHEALHSHYTQKSLSLSPG
IC50, pseudovirus neutralization [11]: 4 nM | IC80, pseudovirus neutralization [11]: 12 nM

B8: A23-58.1HC/58.1LC_93VGLTG (antibody, V domains shown)
VH: QMQLVQSGPEVKKPGTSVKVSCKASGFTFTSSAVQWVRQRQRLEWIGWIVVGSGNTNYAQKFQERVTITRDMSTSTAYMELSSLRSEDTAVYYCAAPNCSNVVCYDGFDIWGQGTMVTVSS
VL: EIVLTQSPGTLSLSPGERATLSCRASQSVSSSYLAWYQQKPGQAPRLLIYSASSRATGIPDRFSGSGSGTDFTLTISRLEPEDFAVYFCQQYVGLTGWTFGQGTKVEIK
IC50, pseudovirus neutralization [11]: 1 nM | IC80, pseudovirus neutralization [11]: 9 nM
